Test system: JNPL3 P301L tangle mice
Test: ELISA of plasma antibody response in immunized JNPL3 P301L mice
Type: in vivo, mouse
Details: binding to an unrelated tau epitope linked via GPSL to TT947-967; plasma 1:200

Row | Substance | antibody response against the tetanus toxin epitope
1 | IGS*TE | A good portion of that antibody response is generated against the tetanus toxin epitope
2 | SRT*PS*LP | strong antibody response

From patent publication US11787854B2, “Immunological targeting of pathological tau proteins” (New York University, priority 2009, dated 2023)
